Data reported in US9975885B2, “Broad-spectrum non-covalent coronavirus protease inhibitors” (priority 2016, dated 2018).

Biological target: SARS-3CL^pro (Severe acute respiratory syndrome coronavirus (SARS-CoV), UniProt P0C6X7)
Type: biochemical

## CC(C)(C)NC(=O)C(c1ccsc1)N(C(=O)Cn1nnc2ccccc21)c1ccc(NC(=O)C2CC2)cc1 (stereo not shown) [Compound 2P, reference compound]
  IC50: 8.9 ± 1.4 µM
